In patent US20240317834A1, “COMPOSITIONS AND METHODS FOR NEUROLOGICAL DISEASES” (CODA BIOTHERAPEUTICS, published 2024):
Where a chain is given by its changes, count along the chain named.

Experiments:
[1] = biological target: T1, CODA377 (S172D in SEQ ID NO: 33) (human (chimera of human α7-nAChR and …))
T1 chain: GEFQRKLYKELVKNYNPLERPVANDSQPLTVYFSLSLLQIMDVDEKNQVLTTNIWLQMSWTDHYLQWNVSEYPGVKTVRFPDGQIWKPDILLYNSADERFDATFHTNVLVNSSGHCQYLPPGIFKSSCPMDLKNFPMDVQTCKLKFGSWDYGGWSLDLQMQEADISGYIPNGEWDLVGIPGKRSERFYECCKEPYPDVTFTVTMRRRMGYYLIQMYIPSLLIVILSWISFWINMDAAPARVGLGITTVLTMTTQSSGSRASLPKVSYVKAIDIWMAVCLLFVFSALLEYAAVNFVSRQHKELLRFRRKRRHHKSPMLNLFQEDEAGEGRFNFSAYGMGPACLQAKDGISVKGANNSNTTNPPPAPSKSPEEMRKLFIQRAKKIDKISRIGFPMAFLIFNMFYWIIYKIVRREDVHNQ

[2] = biological target: T2, CODA339 (L131D in SEQ ID NO: 33) (human (chimera of human α7-nAChR and …))
T2 chain: T1 chain with L109D, D150S

[3] = biological target: T3, CODA806 (Y115D, L131Q in SEQ ID NO: 33) (human (chimera of human α7-nAChR and …))
T3 chain: T1 chain with Y93D, L109Q, D150S

B1: α-bungarotoxin conjugated to Alexa Fluor 647 (ligand)
chain: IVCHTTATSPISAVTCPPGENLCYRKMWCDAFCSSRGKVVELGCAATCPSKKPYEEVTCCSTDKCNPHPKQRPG
[1]
  Normalized AB %: 0.5 ratio to SEQ ID NO: 33 control
  Normalized AB MFI: 0.9 ratio to SEQ ID NO: 33 control
[2]
  Normalized AB %: 0.84 ratio to SEQ ID NO: 33 control
[3]
  Normalized AB %: 0.33 ratio to SEQ ID NO: 33 control
